A mixed list of measured activities; the numbers were collected in NIAID ChemDB.

Shared fields: growth or infection tests; species: Herpes simplex virus 1; measure: EC50

An empty or dashed field is not shown. Two numbers with a dash give a range or band. Conditions beyond the fields shown may differ between rows. ECn is the concentration giving n% inhibition of infection, replication or growth.

Nc1ccn([C@H]2C[C@](O)(CO)CO2)c(=O)n1 ; cell line: CCL18 ; value: >100 µM
O=c1[nH]c(=S)n([C@@H]2O[C@H](CO)[C@@H](O)[C@@H]2O)cc1/C=C/Br ; read by: cytopathic effect ; cell line: RPMI8226 ; strain: A4-3 (TK-) ; value: >213 µM
CCCCC/C=C\c1nc2c(N)ncnc2n1[C@H]1C[C@H](O)[C@@H](CO)O1 ; read by: cytopathic effect ; cell line: ESM ; strain: G ; value: >40 µg/mL
O=c1[nH]c(=O)n([C@H]2C[C@H](O)[C@@H](CO)O2)cc1I ; read by: plaque count ; cell line: HELF ; strain: CHR-3 ; value: 0.4 µg/mL
NS(=O)(=O)OCCOCn1ccc(=O)[nH]c1=O ; read by: plaque count ; value: >100 µM
O=c1ccn([C@@H]2C[C@H](CO)C[C@H]2CO)c(=O)[nH]1 ; cell line: E6SM ; strain: KOS (TK-) ; value: >100 µg/mL
Nc1nc2c(ncn2COCCO)c(=O)[nH]1 ; read by: plaque count ; cell line: CV-1 ; strain: Fukuda ; value: <2.5 µM
CCOC(=O)C1=CN(COCCO)S(=O)(=O)NC1=O ; cell line: E6SM ; strain: VMW1837 (TK-) ; value: >400 µg/mL
Nc1nc2c(ncn2CC[C@@H](O)CO)c(=O)[nH]1 ; read by: plaque count ; cell line: HEL ; strain: C42 ; value: 1 µM
NC1=CC(N)=NS(=O)(=O)N1COCCO ; cell line: E6SM ; strain: VMW1837 (TK-) ; value: >400 µg/mL
CC=NC(=N)c1nc(-c2ccc(OC)cc2)n(C/C=C/c2ccccc2)n1 ; read by: cytopathic effect ; cell line: E6SM ; strain: VMW 1837 ; value: >10 µg/mL
C=Cc1cn([C@H]2C[C@H](O)[C@@H](CO)O2)c(=S)[nH]c1=O ; read by: cytopathic effect ; cell line: RPMI8226 ; strain: A4-3 (TK-) ; value: >290.3 µM
CCc1cn([C@H]2C[C@H](O)[C@@H](CO)O2)c(=O)[nH]c1=O ; read by: cytopathic effect ; cell line: HSF ; strain: KOS ; value: 2.7 µg/mL
O=c1[nH]c(=O)n([C@@H]2O[C@H](CO)[C@@H](O)[C@@H]2O)cc1/C=C/I ; read by: plaque count ; cell line: HELF ; strain: MP ; value: 0.005 µg/mL
C/C(O)=C1\C(=N)N(COCCO)S(=O)(=O)N=C1N ; cell line: E6SM ; strain: B206 (TK-) ; value: >400 µg/mL
Cc1cn([C@H]2CC3(CO2)COC(C)(C)O3)c(=O)[nH]c1=O ; cell line: CCL18 ; value: >100 µM
NC1=CC(c2ccccc2)=Nn2c(nnc2-c2cn(-c3ccccc3)nc2-c2ccccc2)S1 ; read by: cytopathic effect ; cell line: HEL ; strain: KOS ; value: >80 µg/mL
CC=NC(=N)c1nc(-c2ccc(C)cc2)n(Cc2ccccc2)n1 ; read by: cytopathic effect ; cell line: E6SM ; strain: VMW 1837 ; value: >4 µg/mL
O=C(NCc1ccc(Cl)cc1)c1c[nH]c2c(F)cccc2c1=O ; read by: plaque count ; strain: F ; value: 18 µM
CCCC#Cc1nc2c(N)ncnc2n1[C@H]1C[C@H](O)[C@@H](CO)O1 ; read by: cytopathic effect ; cell line: ESM ; strain: KOS ; value: 100 µg/mL
CCc1c(CN[C@@H]2CCCC[C@H]2NCc2ccc[nH]2)c(CC)c(CN[C@@H]2CCCC[C@H]2NCc2ccc[nH]2)c(CC)c1CN[C@@H]1CCCC[C@H]1NCc1ccc[nH]1 ; read by: cytopathic effect ; cell line: Human embryonic lung fibroblasts ; strain: KOS ; value: >0.16 µM
Nc1nc2c(ncn2COCCOP(=O)(O)O[C@@H]2[C@H](O)[C@@H](COP(=O)(O)O[C@@H]3[C@H](O)[C@@H](CO)O[C@H]3n3cnc4c(N)ncnc43)O[C@H]2n2cnc3c(N)ncnc32)c(=O)[nH]1 ; read by: cytopathic effect ; cell line: PRK ; strain: F ; value: 0.7 µg/mL
C=Cc1cn([C@@H]2O[C@H](CO)[C@@H](O)[C@@H]2O)c(=S)[nH]c1=O ; read by: cytopathic effect ; cell line: RPMI8226 ; strain: A4-3 (TK-) ; value: >266.3 µM
C=C(N=CC)c1nc(-c2ccc(OC)cc2)n(C2O[C@H](CO)[C@@H](O)[C@H](O)[C@H]2O)n1 ; read by: cytopathic effect ; cell line: E6SM ; strain: KOS ; value: 150 µg/mL
CC(C)[C@H](NC(=O)[C@H](CCCN=C(N)N)NC(=O)N[C@@H](Cc1ccccc1)C(=O)O)C(=O)N[C@H](C=O)CCCN=C(N)N ; read by: plaque count ; cell line: CV-1 ; strain: Fukuda ; value: 20–40 µM
Cc1cn([C@@H]2C[C@](O)(CO)CO2)c(=O)[nH]c1=O ; cell line: CCL18 ; value: >100 µM
CC=NC(=N)c1nc(-c2cccc(OC)c2)n(C/C=C/c2ccccc2)n1 ; read by: cytopathic effect ; cell line: E6SM ; strain: KOS ; value: >10 µg/mL
O=c1[nH]c(=O)n([C@H]2C[C@H](O)[C@@H](CO)O2)cc1/C=C/Br ; read by: plaque count ; cell line: HELF ; strain: VR-3 ; value: 0.017 µg/mL
Nc1ncnc2c1ncn2[C@@H]1O[C@H](CO)[C@@H](O)[C@@H]1O ; read by: plaque count ; cell line: RK-13 ; strain: Ara-A-resistant ; value: 105 µM
[O-][n+]1onc2ncnc(N3CC[N+]4(CC3)CC[N+]3(CCN(c5ncnc6no[n+]([O-])c56)CC3)CC4)c21 ; read by: plaque count ; cell line: GMK ; strain: K1 ; value: 8.6 µM
Nc1nc2c(ncn2COCCO)c(=O)[nH]1 ; read by: cytopathic effect ; cell line: HFF ; strain: 12959 DM21 acyclovir-resistant ; value: >50 µg/mL
C[C@@H](c1ccccc1)N(CC(=O)Nc1ccc(-c2csc(N)n2)cc1)C(=O)c1ccncc1 ; read by: plaque count ; cell line: BHK-21/C13 ; strain: KOS ; value: 0.08 µM
Nc1ccn(CC(CO)OCP(=O)(O)O)c(=O)n1 ; read by: cytopathic effect ; cell line: Human embryonic lung fibroblasts ; strain: TK- KOS ACVr ; value: 6 µM
CC=NC(=N)c1nc(-c2ccccc2)n(COCCO)n1 ; read by: cytopathic effect ; cell line: E6SM ; strain: VMW 1837 ; value: >40 µg/mL
CCc1c(CN[C@@H]2CCCC[C@H]2N)c(CC)c2c(CC)c1CN[C@@H]1CCCC[C@H]1NCc1ccc([nH]1)CN[C@@H]1CCCC[C@H]1NC2 ; read by: cytopathic effect ; cell line: Human embryonic lung fibroblasts ; strain: KOS ; value: >20 µM
Cc1cn([C@H]2C[C@H](O)[C@@H](CO)O2)c(=S)nc1N ; read by: cytopathic effect ; cell line: RPMI8226 ; strain: A4-3 (TK-) ; value: >300.8 µM
CC[C@@H](NC(=O)[C@@H](CC(=O)[C@@H](CC(=O)[C@@H](NC(=O)[C@H](C(C)C)N(C)C(=O)[C@H](C)CC1CCCCC1)C(C)(C)C)CC(=O)C(C)(C)C)C1(C(=O)O)CCCC1)C(C)(C)C ; read by: ELISA ; cell line: BHK-21/C13 ; strain: F ; value: 0.35 µM
C=Cc1cn(CC(CO)CO)c(=O)[nH]c1=O ; read by: plaque count ; cell line: VERO ; strain: KOS (TK+) ; value: >25 µg/mL
CC(=O)OCCOCN1C=CC(=O)N(COCCO)S1(=O)=O ; cell line: E6SM ; strain: McIntyre ; value: >400 µg/mL
c1c[nH]c(CNCc2cc(CNCc3ccc[nH]3)c(CNCc3ccc[nH]3)cc2CNCc2ccc[nH]2)c1 ; read by: cytopathic effect ; cell line: Human embryonic lung fibroblasts ; strain: TK- KOS ACVr ; value: >100 µM
CC=NC(=N)c1nc(-c2cccc(C)c2)n(C/C=C/c2ccccc2)n1 ; read by: cytopathic effect ; cell line: E6SM ; strain: VMW 1837 ; value: >4 µg/mL
CCCc1cn([C@H]2C[C@H](O)[C@@H](COP(=O)(O)O)O2)c(=O)[nH]c1=O ; read by: cytopathic effect ; cell line: HSF ; strain: B2006 (TK-) ; value: >797 µg/mL
Nn1c(SCC(=O)O)nnc1-c1cn(-c2ccccc2)nc1-c1ccccc1 ; read by: cytopathic effect ; cell line: HEL ; strain: KOS ; value: >80 µg/mL
Cc1cn([C@H]2C[C@](O)(CO)CO2)c(=O)[nH]c1=O ; cell line: CCL18 ; value: >100 µM
Nc1nc2c(ncn2CCCC(CO)CO)c(=O)[nH]1 ; read by: plaque count ; cell line: Primary mouse cells ; strain: C42 ; value: 0.1 µM
CC(O)c1cn([C@@H]2O[C@H](CO)[C@@H](O)[C@@H]2O)c(=S)nc1N ; read by: cytopathic effect ; cell line: RPMI8226 ; strain: KOS (TK+) ; value: >244.8 µM
O=c1[nH]c(=O)n([C@H]2C[C@H](O)[C@@H](CO)O2)cc1I ; read by: cytopathic effect ; cell line: PRK ; strain: KOS ; value: 0.1 µg/mL
O=C(O)/C=C/c1cn([C@@H]2O[C@H](CO)[C@@H](O)[C@@H]2O)c(=S)[nH]c1=O ; read by: cytopathic effect ; cell line: RPMI8226 ; strain: KOS (TK+) ; value: >209.8 µM
CC(=O)OCCOCN1C=CC(=O)N(COCCOC(C)=O)S1(=O)=O ; cell line: E6SM ; strain: KOS ; value: >400 µg/mL
c1ccc(-c2nn3c(-c4cn(-c5ccccc5)nc4-c4ccccc4)nnc3s2)cc1 ; read by: cytopathic effect ; cell line: HEL ; strain: KOS (TK-) ; value: >3.2 µg/mL
O=c1[nH]c(=O)n([C@H]2C[C@H](O)[C@@H](CO)O2)cc1F ; read by: cytopathic effect ; cell line: PRK ; strain: KOS ; value: 20 µg/mL
Cc1cn([C@@H]2O[C@H](CO)[C@@H](O)[C@@H]2O)c(=S)nc1N ; read by: cytopathic effect ; cell line: RPMI8226 ; strain: KOS (TK+) ; value: 92.2 µM
CC=NC(=N)c1nc(-c2cccc(C)c2)n(COCCO)n1 ; read by: cytopathic effect ; cell line: E6SM ; strain: VMW 1837 ; value: >10 µg/mL
O=C(NCc1ccc(Cl)cc1)c1c[nH]c2c(F)cc(CCCO)cc2c1=O ; strain: PAAS (R841S (III)) ; value: 1.1 µM
Nc1nc2c(ncn2CCC(CO)CO)c(=O)[nH]1 ; read by: plaque count ; cell line: VERO ; strain: KD2 ; value: 0.9 µM
C=Cc1cn([C@@H]2O[C@H](CO)[C@@H](O)[C@@H]2O)c(=S)nc1N ; read by: cytopathic effect ; cell line: RPMI8226 ; strain: A4-3 (TK-) ; value: >266.3 µM
C/C=C\c1nc2c(N)ncnc2n1[C@H]1C[C@H](O)[C@@H](CO)O1 ; read by: cytopathic effect ; cell line: ESM ; strain: B2006 (TK-) ; value: >100 µg/mL
[N-]=[N+]=Nc1cccc(/C=C/c2cn([C@H]3C[C@H](O)[C@@H](COP(=O)(O)O)O3)c(=O)[nH]c2=O)c1 ; read by: cytopathic effect ; cell line: PRK ; strain: McIntyre ; value: >200 µg/mL
CC(=O)OCCOCn1cc(I)c(=O)[nH]c1=O ; read by: plaque count ; value: >100 µM
CCCCCCCc1nc2c(N)ncnc2n1[C@H]1C[C@H](O)[C@@H](CO)O1 ; read by: cytopathic effect ; cell line: ESM ; strain: KOS ; value: >40 µg/mL
Cc1nn2c(-c3cn(-c4ccccc4)nc3-c3ccccc3)nnc2s1 ; read by: cytopathic effect ; cell line: HEL ; strain: KOS (TK-) ; value: >16 µg/mL
O=c1[nH]c(=O)n(C2C[C@H](CO)[C@@H](CO)C2)cc1I ; cell line: E6SM ; strain: KOS ; value: >100 µg/mL
Nn1c(-c2cn(-c3ccccc3)nc2-c2ccccc2)n[nH]c1=S ; read by: cytopathic effect ; cell line: HEL ; strain: KOS ; value: >80 µg/mL
O=c1[nH]c(=O)n([C@@H]2O[C@H](CO)[C@@H](O)[C@@H]2O)cc1/C=C/Br ; read by: cytopathic effect ; cell line: PRK ; strain: KOS ; value: 0.1 µg/mL
CC=NC(=N)c1nc(-c2cccc(OC)c2)n(COCCO)n1 ; read by: cytopathic effect ; cell line: E6SM ; strain: KOS ; value: 300 µg/mL
O=c1[nH]c(=S)ccn1COCCO ; read by: plaque count ; value: >100 µM
O=C(NCc1ccc(Cl)cc1)c1c[nH]c2c(F)cccc2c1=O ; read by: plaque count ; value: 9.1 µM
CCc1cn([C@H]2C[C@H](O)[C@@H](CO)O2)c(=S)[nH]c1=O ; read by: cytopathic effect ; cell line: RPMI8226 ; strain: A4-3 (TK-) ; value: >288.6 µM
CC(C)Nc1ncnc2c1ncn2C1C[C@H](CO)[C@@H](CO)C1 ; cell line: E6SM ; strain: KOS (TK-) ; value: >100 µg/mL
O=C(Nc1ccn([C@H]2C[C@](O)(CO)CO2)c(=O)n1)c1ccccc1 ; cell line: CCL18 ; value: >100 µM
O=c1[nH]n2c(-c3cn(-c4ccccc4)nc3-c3ccccc3)nnc2s1 ; read by: cytopathic effect ; cell line: HEL ; strain: KOS ; value: >16 µg/mL
Cc1cn([C@@H]2O[C@H](CO)[C@@H](O)[C@@H]2O)c(=O)[nH]c1=O ; read by: plaque count ; cell line: HELF ; strain: MP ; value: 0.29 µg/mL
CC(=O)OCCOCn1cc(F)c(=O)[nH]c1=O ; read by: plaque count ; value: >100 µM

Repeating the first 5 entries:

| structure | read by | cell line | strain | value |
|---|---|---|---|---|
| Nc1ccn([C@H]2C[C@](O)(CO)CO2)c(=O)n1 | - | CCL18 | - | >100 µM |
| O=c1[nH]c(=S)n([C@@H]2O[C@H](CO)[C@@H](O)[C@@H]2O)cc1/C=C/Br | cytopathic effect | RPMI8226 | A4-3 (TK-) | >213 µM |
| CCCCC/C=C\c1nc2c(N)ncnc2n1[C@H]1C[C@H](O)[C@@H](CO)O1 | cytopathic effect | ESM | G | >40 µg/mL |
| O=c1[nH]c(=O)n([C@H]2C[C@H](O)[C@@H](CO)O2)cc1I | plaque count | HELF | CHR-3 | 0.4 µg/mL |
| NS(=O)(=O)OCCOCn1ccc(=O)[nH]c1=O | plaque count | - | - | >100 µM |